Data as given in patent publication US8895613B2 (priority 2013, dated 2014).

Tests used:
[1] = system: highly pathogenic strain Ia/duck/MN/1525/81 (H5N1); type: cell-based, influenza virus Ia/duck/MN/1525/81 (H5N1) in MDCK cells
[2] = biological target: neuraminidase of influenza virus B/Pert/211/2001 (197D) (Influenza B virus, UniProt Q3S340); type: biochemical; conditions: read-out: IC50, nM (number of experiments)

In the case of `CCC(CC)O[C@@H]1C=C(C(=O)O)C[C@H](N)[C@H]1NC(C)=O` [A2, (3R,4R,5S)-5-amino-4-acetamido-3-(pentan-3-yloxy)cyclohex-1-enecarboxylic acid, reference compound], the “IC50(Zan)/IC50(1.1)” value [1] is reported as 24.2 and the IC50 [2] is reported as 39.2 nM.
